Our source for the IC50 values is US6509359B1, “Pyrrolidin-2-one compounds and their use as neuraminidase inhibitors” (priority 1997, dated 2003).

Sequences of proteins named here, by UniProt entry; tags and fusion partners are left off.
UniProt P06820, whole entry, looked up: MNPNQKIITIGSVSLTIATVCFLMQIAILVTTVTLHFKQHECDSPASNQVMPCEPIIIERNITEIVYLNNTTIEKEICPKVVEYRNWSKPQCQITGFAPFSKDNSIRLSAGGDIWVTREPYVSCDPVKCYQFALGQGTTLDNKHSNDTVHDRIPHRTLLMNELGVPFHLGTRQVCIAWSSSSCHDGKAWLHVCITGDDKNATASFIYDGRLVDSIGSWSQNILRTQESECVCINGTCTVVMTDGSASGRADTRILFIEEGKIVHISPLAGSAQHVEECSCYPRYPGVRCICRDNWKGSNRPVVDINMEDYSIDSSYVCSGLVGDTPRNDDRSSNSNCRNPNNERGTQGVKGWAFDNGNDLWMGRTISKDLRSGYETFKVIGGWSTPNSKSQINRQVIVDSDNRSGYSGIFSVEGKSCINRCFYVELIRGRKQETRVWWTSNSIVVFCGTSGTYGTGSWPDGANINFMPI

The target of this experiment is influenza neuraminidase (N2) (Influenza A virus, UniProt P06820). The class given is biochemical, influenza virus Type A. The conditions noted are these: read-out: Neuraminidase Inhibition Activity IC50, N2.

Turning to “1-[4-Carboxy-2-(pentylaminolphenyl]-5,5-bis(hydroxymethyl)pyrrolidin-2-one [Example 13]”, the 50% inhibitory concentration (IC50) amounted to 36.4 µM.

One may read the IC50 as the concentration that gives 50% inhibition.
